Pooled drug test results. Numbers come from NIAID ChemDB, via PubChem.

All rows: growth or infection tests; agent: Candida albicans

Lines come from different laboratories, so protocols vary.

O=C(/C=C/c1ccc(F)cc1)OC1CCN(CC(O)(Cn2cncn2)c2ccc(F)cc2F)CC1 ; read by: broth dilution ; measure: MIC80 ; strain: Y0109 ; value: 0.005 µM
CCCCCCCCCCCOC[n+]1cccc(NCNc2ccc[n+](COCCCCCCCCCCC)c2)c1 ; measure: MBC ; strain: ATCC 10231 ; value: 195 µM
CCc1nc(CCC(=O)O)cnc1CCC(=O)O ; read by: turbidity ; measure: MIC ; strain: ATCC 32354 ; value: >128 µg/mL
Nc1ncnc2c1ncn2[C@@H]1O[C@H](C(=O)NO)[C@@H](NC(=O)[C@H](N)CSCc2ccccc2)[C@H]1O ; measure: MIC ; strain: FP633 ; value: 6.2 µg/mL
C[C@@H]1[C@H](O)[C@@H](C)/C=C/C=C/C=C/C=C/C=C/C=C/C=C/[C@H](OC2O[C@H](C)[C@@H](O)[C@H](N(CCCN)CCCN)[C@@H]2O)C[C@@H]2O[C@](O)(C[C@@H](O)C[C@@H](O)[C@H](O)CC[C@@H](O)C[C@@H](O)CC(=O)O[C@H]1C)C[C@H](O)[C@H]2C(=O)NCCn1cncn1 ; measure: MIC ; strain: CAF2-1 ; value: 0.04 µM
CCN(CC)CCCC(C)Nc1c2ccc(Cl)cc2nc2ccc(OC)cc12 ; conditions: biofilm ; read by: broth dilution ; measure: MIC80 ; strain: SC5314 ; value: 512 µg/mL
O=C(/C=C/c1ccc(Br)cc1)OC1CCN(CC(O)(Cn2cncn2)c2ccc(F)cc2F)CC1 ; read by: broth dilution ; measure: MIC80 ; strain: Y0109 ; value: 0.007 µM
CN[C@@H]1[C@H](O[C@@H]2O[C@H](CO)[C@@H](O)[C@H](S(=O)(=O)O)[C@H]2O)[C@@H](O)[C@H](O[C@H]2c3cc(C)c(C(=O)N[C@H](C)C(=O)O)c(O)c3-c3c(cc4c(c3O)C(=O)c3cc(OC)cc(O)c3C4=O)[C@@H]2O)O[C@@H]1C ; measure: MIC ; strain: ATCC 38247 ; value: 6.3 µg/mL
CC1=CC[C@@H]2[C@H](C1)C2(C)C ; measure: MIC ; strain: ATCC 10231 ; value: 0.32–0.64 µg/mL
O=C(CCl)OC1CCN(CC(O)(Cn2cncn2)c2ccc(F)cc2F)CC1 ; read by: broth dilution ; measure: MIC80 ; strain: Y0109 ; value: 0.604 µM
Cc1c(Sc2ccccc2)[n+](=O)c2cc(Cl)ccc2n1[O-] ; measure: MIC ; strain: Clinical isolate 7 ; value: 15.6 µg/mL
O=C(N/N=C/c1cc([N+](=O)[O-])ccc1O)c1ccc(I)cc1 ; measure: MIC ; strain: ATCC 89122 ; value: >25 µg/mL
CC1CC(C)CN(c2nc(Cl)nc(NC3CC3)n2)C1 ; read by: agar ; measure: MIC ; strain: MTCC 183 ; value: 200 µg/mL
Nc1[nH]c(=O)ncc1F ; measure: MIC ; strain: 2968 ; value: 0.5 µg/mL
Nc1ncnc2c1ncn2[C@@H]1O[C@H](C(=O)O)[C@@H](NC(=O)/C=C\c2ccccc2)[C@H]1O ; measure: MIC ; strain: FP633 ; value: >100 µg/mL
Cc1nn(-c2ccccc2)c2c1C(c1cccc(Br)c1)c1c(nc(=S)[nH]c1N)O2 ; measure: MIC ; strain: MTCC 227 ; value: 1000 µg/mL
CCC(C)CC(C)CCCCCCCCC(=O)N[C@H]1C[C@@H](O)[C@H](NCCN)NC(=O)[C@@H]2[C@@H](O)CCN2C(=O)[C@H]([C@H](O)CCN)NC(=O)[C@H]([C@H](O)[C@@H](O)c2ccc(O)cc2)NC(=O)[C@@H]2C[C@@H](O)CN2C(=O)[C@H]([C@@H](C)O)NC1=O ; measure: MIC ; strain: 40 isolates ; value: 8–32 µg/mL
N=C(N)c1ccc(Oc2ccc(/C=C/c3cc4ccc(C(=N)N)cc4[nH]3)cc2)cc1 ; measure: MIC ; value: 10 µg/mL
C[C@@H]1[C@H](O)[C@@H](C)/C=C/C=C/C=C/C=C/C=C/C=C/C=C/[C@H](OC2O[C@H](C)[C@@H](O)[C@H](N(CCCN)CCCN)[C@@H]2O)C[C@@H]2O[C@](O)(C[C@@H](O)C[C@@H](O)[C@H](O)CC[C@@H](O)C[C@@H](O)CC(=O)O[C@H]1C)C[C@H](O)[C@H]2C(=O)O ; measure: MIC ; strain: CAF2-1 ; value: 0.1 µM
Nc1ncnc2c1ncn2[C@@H]1O[C@H](C(=O)O)[C@@H](NC(=O)C(N)CSCc2ccc(Cl)cc2)[C@H]1O ; measure: MIC ; strain: FP633 ; value: 0.2 µg/mL
N=C(N)c1ccc(Nc2cc3cc(C(=N)N)ccc3[nH]2)cc1 ; measure: MIC ; value: >60 µg/mL
CC(=O)N1CCN(c2nc(Cl)nc(NC3CC3)n2)CC1 ; read by: agar ; measure: MIC ; strain: MTCC 183 ; value: 25 µg/mL
O=C(/C=C/c1ccccc1F)OC1CCN(CC(O)(Cn2cncn2)c2ccc(F)cc2F)CC1 ; read by: broth dilution ; measure: MIC80 ; strain: Y0109 ; value: 0.032 µM
CC(SC[C@@H](N)C(=O)N[C@H]1[C@@H](O)[C@H](n2cnc3c(N)ncnc32)O[C@@H]1C(=O)O)c1ccccc1 ; measure: MIC ; strain: FP633 ; value: 50 µg/mL
Brc1cc(Br)c2ncnc(NCCNc3nc(NC4CC4)nc(N4CCC(Cc5ccccc5)CC4)n3)c2c1 ; read by: agar ; measure: MIC ; strain: MTCC 183 ; value: 100 µg/mL
Cc1nn(-c2ccccc2)c2c1C(c1cccc([N+](=O)[O-])c1)c1c(nc(=S)[nH]c1N)O2 ; measure: MIC ; strain: MTCC 227 ; value: 1000 µg/mL
CCCCCCNC(=O)[C@H]1[C@@H]2C[C@@H](OC3O[C@H](C)[C@@H](O)[C@H](N(CCCN)CCCN)[C@@H]3O)/C=C/C=C/C=C/C=C/C=C/C=C/C=C/[C@H](C)[C@@H](O)[C@@H](C)[C@H](C)OC(=O)C[C@H](O)C[C@H](O)CC[C@@H](O)[C@H](O)C[C@H](O)C[C@](O)(C[C@@H]1O)O2 ; measure: MIC ; strain: CAF2-1 ; value: 0.5 µM
S=C(S)n1nnc2ccccc21 ; conditions: 48 h ; read by: broth dilution / absorbance ; measure: EC50 ; strain: ATCC 10231 ; value: >50 µg/mL
CCCCCCCCOc1ccc(C(=O)NC2C[C@@H](O)[C@@H](O)NC(=O)C3[C@@H](O)[C@@H](C)CN3C(=O)C(C(C)O)NC(=O)C([C@H](O)[C@@H](O)c3ccc(O)cc3)NC(=O)C3C[C@@H](O)CN3C(=O)C(C(C)O)NC2=O)cc1 ; measure: MIC ; strain: Isolate 5 ; value: 2 µg/mL
CCC(C)C(=O)Oc1ccc(OC)cc1C1OC1C ; measure: EC50 ; strain: ATCC 90028 ; value: >50 µg/mL
CCOc1cc2c(cc1F)n([O-])c(C)c(Cl)[n+]2=O ; measure: MIC ; strain: Clinical isolate 7 ; value: 15.6 µg/mL
CC(C)SCC[C@H](N)C(=O)N[C@H]1[C@@H](O)[C@H](n2cnc3c(N)ncnc32)O[C@@H]1C(=O)O ; measure: MIC ; strain: FP633 ; value: 25 µg/mL
Cc1c(S(=O)(=O)c2ccccc2)[n+](=O)c2ccccc2n1[O-] ; measure: MIC ; strain: Clinical isolate 3 ; value: 62.5 µg/mL
CCCCCCCOC[n+]1cccc(NCn2nnc3ccccc32)c1 ; measure: MBC ; strain: ATCC 10231 ; value: >1284 µM
C[C@H](O)Cc1cc2c(O[C@H]3O[C@H](CO)[C@@H](O)[C@H]3O)ccc(O)c2c(=O)o1 ; read by: turbidity ; measure: MIC ; strain: ATCC 32354 ; value: >128 µg/mL
CCCCCCCC(=O)OC1CCN(CC(O)(Cn2cncn2)c2ccc(F)cc2F)CC1 ; read by: broth dilution ; measure: MIC80 ; strain: Y0109 ; value: 0.009 µM
Cc1nn(-c2ccccc2)c2c1C(c1ccc(F)cc1)C(C#N)=C(N)O2 ; measure: MIC ; strain: MTCC 227 ; value: 200 µg/mL
N=C(N)c1ccc(Oc2ccc(-c3cc4ccc(C(=N)N)cc4[nH]3)cc2)cc1 ; measure: MIC ; value: 3 µg/mL
Nc1ncnc2c1ncn2[C@@H]1O[C@H](C(=O)O)[C@@H](NC(=O)C(N)CSCc2ccco2)[C@H]1O ; measure: MIC ; strain: FP633 ; value: 0.8 µg/mL
C[C@H]1[C@H](O)[C@@H](C)/C=C/C=C/C=C/C=C/C=C/C=C/C=C/[C@H](O[C@@H]2O[C@H](C)[C@@H](O)[C@H](N)[C@@H]2O)C[C@@H]2O[C@](O)(C[C@@H](O)C[C@@H](O)CC[C@H](O)[C@@H](O)C[C@@H](O)CC(=O)O[C@H]1C)C[C@H](O)[C@H]2C(=O)O ; measure: MIC ; strain: ATCC28366 ; value: 0.125 µg/mL
Nc1ncnc2c1ncn2[C@@H]1O[C@H](C(=O)O)[C@@H](NC(=O)[C@H](N)CSC2CCCCO2)[C@H]1O ; measure: MIC ; strain: FP633 ; value: >100 µg/mL
CC1CC(c2ccncc2)Nc2ccc(Br)cc21 ; measure: MIC100 ; strain: ATCC 10231 ; value: >250 µg/mL
CC1(C)C2CCC3=C(CC[C@]4(C)CCC[C@@]34C)[C@@]2(C)CC[C@@H]1O ; measure: MIC ; strain: IP 1180.79 ; value: >250 µM
Cc1ccc(CSCC(N)C(=O)N[C@H]2[C@@H](O)[C@H](n3cnc4c(N)ncnc43)O[C@@H]2C(=O)O)cc1 ; measure: MIC ; strain: FP633 ; value: 0.2 µg/mL
Cc1nn(-c2ccccc2)c2c1C(c1ccccc1Cl)c1c(nc(=S)[nH]c1N)O2 ; measure: MIC ; strain: MTCC 227 ; value: 500 µg/mL
C=CCc1ccc(OC(=O)/C(C)=C/C)cc1 ; measure: EC50 ; strain: ATCC 90028 ; value: >50 µg/mL
CCC(C)n1ncn(-c2ccc(N3CCN(c4ccc(OC[C@H]5CO[C@](Cn6cncn6)(c6ccc(Cl)cc6Cl)O5)cc4)CC3)cc2)c1=O ; measure: MFC99 ; strain: A28235 ; value: >16 µg/mL
N=C(N)c1ccc(C2Cc3cc(C(=N)N)ccc3S2(=O)=O)cc1 ; measure: MIC ; value: >60 µg/mL
CN(CCCC#CC(C)(C)C)c1cccc2c1CCC(=O)N2 ; measure: MIC ; strain: Clinical isolate 8 ; value: 31.25 µg/mL
CCCCCCCCOC[n+]1cccc(NCn2nnc3ccccc32)c1 ; measure: MBC ; strain: ATCC 10231 ; value: >1284 µM
O=C(Cc1ccccc1)OC1CCN(CC(O)(Cn2cncn2)c2ccc(F)cc2F)CC1 ; read by: broth dilution ; measure: MIC80 ; strain: Y0109 ; value: 0.034 µM
COc1ccc(CN2CCN(c3nc(NCCNc4ncnc5c(Br)cc(Br)cc45)nc(NC4CC4)n3)CC2)c(OC)c1OC ; read by: agar ; measure: MIC ; strain: MTCC 183 ; value: 25 µg/mL
CCCOC[n+]1cccc(NCn2nnc3ccccc32)c1 ; measure: MIC ; strain: ATCC 10231 ; value: >1499 µM

ECn: concentration that inhibits the pathogen or its effect by n%. A number after MIC or MFC names an inhibition level or a share of isolates. a–b is a range or a potency band.